# Assay results taken from PMC10878525.
# Biological target: m9 (UniProt A0A8V0YY01)
# Conditions: parent: est. 100; read off a plot
substance,measurement,value
soluble HPRS103-gp85 (CAG-sgp85-Fc) G221A; T226A,percent of parent,98%
